Experiments:
crystal structure = target: the molecule itself; assay: crystal structure
[1] = target: the molecule itself; assay: SEC; HiLoad 16/600 Superdex 75 pg, 25 mM Tris-HCl pH 7.5, 100 mM NaCl

Protein | binding result (crystal structure) | stoichiometry N [1]
recombinant BPSL1038-selenomethionine substituted protein (smBPSL1038) (natural protein, selenomethionine in place of methionine) MAGNLVIVCRDQDADAFDQLMQEYGSFQTRLSSTAWYLNMNIVPETLQEDILERVGKYTTLYIFEATSVTYNTIDSNAAETLSTLFGE | binds | –
recombinant native BPSL1038 protein with N-terminus 6X-His tag (rBPSL1038) (natural protein) MAGNLVIVCRDQDADAFDQLMQEYGSFQTRLSSTAWYLNMNIVPETLQEDILERVGKYTTLYIFEATSVTYNTIDSNAAETLSTLFGE | – | 2
